The record followed here is PubChem BioAssay AID651610 (Broad Institute, 2012).

Each structure is given as a SMILES string. The list shows a part of the results, in another mix than the full data. Some salts and complexes are drawn in separate pieces, as the source files them; their charges need not balance. Active and inactive are the calls of the source.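 How the source made its calls: active means mean replicate inhibition score of at least 50 and every replicate individually at or above 50; inconclusive means only one of the two criteria met; inactive means mean below 50 and not all replicates reaching 50.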

This experiment can be described thus: inhibitors of HIV-1 Env-driven cell-cell fusion, primary screen, HeLa-JRFL effector, CEM21 target cells, luciferase (AID 651610).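 Further: 0% = plate neutral controls and 100% = maraviroc near 300 nM.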 The following applies: at 12.3 µM, stronger effect = higher value.
With `Cc1ccc(NP(=O)(Oc2ccccc2F)Oc2ccccc2F)nc1`, the inhibition was inactive: -7.35%. Under `O=P(Nc1nc2ccc(Cl)cc2s1)(c1ccccc1)c1ccccc1` stands inactive: -17.4%.

Turning to `CN(C)P(=O)(N(C)C)n1c(Nc2ccccc2)nnc1-c1ccccc1`, the inhibition was inactive: 10.3%. For `Cc1cc(C)cc(OP(C)(=O)Nc2cccc(C(F)(F)F)c2)c1` (stereo unspecified) the value was inactive: -10%. For `O=C1C(O)=C([N+](=O)[O-])C(=O)C(O)=C1[N+](=O)[O-]` the value was inactive: 1.35%; for `CCCC1OP(N)(=O)OCC1CC` (stereo unspecified), inactive: 24.6%.

With `CC(=O)Nc1ccc([As](=O)(O)O)cc1`, the inhibition is inactive: 1.22%. Under `O=C(O)c1ccccc1[As](=O)(O)O` stands inactive: 11.9%; under `CP(=O)(Nc1ccc(Cl)cc1Cl)Oc1ccccc1` (stereo unspecified), inactive: 7.75%. On to `CCCCCCCCCCCCCCCC1C[N+](C)(C)CCOP(C)(=O)O1` (stereo unspecified), for which the inhibition was inactive: 9.86%. For the compound `CP(=O)(OCCOc1ccccc1)OCCOc1ccccc1`, the inhibition was inactive: 20.5%.

In the case of `Nc1cccc2ccc([As](=O)(O)O)cc12`, the inhibition was inactive: -9.04%. In the case of `CCN(N=Nc1nonc1N)c1nonc1N`, the inhibition is inactive: -46.8%. In the case of `CN(C)CCOC(=O)C(O)(c1ccccc1)C1CCCC1` (stereo unspecified), the inhibition was inactive: -30.5%. For `Clc1ccc(Cl)c(NC2=NCC(CBr)S2)c1` (stereo unspecified) the value was inactive: 4.69%; for `Cc1ccc(OP(=O)(Nc2nccs2)Oc2ccc(C)cc2)cc1`, inactive: 10.3%. Under `COc1ccccc1OP(=O)(Nc1ccc(C)cn1)Oc1ccccc1OC` stands inactive: 4.29%; under `COc1ccc(OP(C)(=O)Nc2ccccn2)cc1` (stereo unspecified), inactive: -18.1%; under `Cc1ccc(N/C(=N/P(=O)(N2CCOCC2)N2CCOCC2)N2CCOCC2)cc1`, inactive: 8.89%. Turning to `CN(C(=O)Cc1ccc(Cl)c(Cl)c1)[C@H]1CCCC[C@H]1N1CCCC1`, the inhibition was inactive: 7.37%. Consider `COc1ccccc1OP(C)(=O)Nc1ccc(Br)cc1` (stereo unspecified), for which the inhibition is inactive: -21.6%. Under `NC(=O)c1cc([N+](=O)[O-])cc([N+](=O)[O-])c1N` stands inactive: 3.45%. Under `COc1ccccc1OP(C)(=O)Nc1ccc(C)cc1C` (stereo unspecified) stands inactive: -23.2%. With `O=C(NC(Sc1ccncn1)C(Cl)(Cl)Cl)c1ccccc1` (stereo unspecified), the inhibition is inactive: 12.6%. For `Nc1cc(N)c2nonc2c1[N+](=O)[O-]` the value was inactive: 5.53%; for `Cc1c(NP(C)(=O)Oc2ccc(C(C)C)cc2)c(=O)n(-c2ccccc2)n1C` (stereo unspecified), inactive: -69.8%. Take `O=[N+]([O-])c1cc([N+](=O)[O-])c(Nc2ccccn2)c([N+](=O)[O-])c1`: the inhibition was inactive: -0.15%.

In the case of `CC(C)CC(=O)NC(Sc1ccc(Cl)cc1)C(Cl)(Cl)Cl` (stereo unspecified), the inhibition is inactive: 7.45%.

`CC(C)c1ccc(OP(C)(=O)Nc2ccc(SC(F)(F)F)cc2)cc1` (stereo unspecified): the inhibition was inactive: 1.55%. Under `CC(C)(C)C(=O)NC(Sc1ccccc1)C(Cl)(Cl)Cl` (stereo unspecified) stands inactive: 16.9%; under `CCc1cc(O)c([N+](=O)[O-])c(C)c1[N+](=O)[O-]`, inactive: -11.4%.

In the case of `CCOc1ccc(C2=NCC(CBr)S2)cc1` (stereo unspecified), the inhibition is inactive: 6.87%. Under `O=[N+]([O-])c1cc([N+](=O)[O-])c(Nc2ccc(Cl)cc2)c([N+](=O)[O-])c1` stands inactive: -39.9%.

`O=P1(Nc2nc3ccc(Cl)cc3s2)COc2ccccc2O1` (stereo unspecified): the inhibition was inactive: -94.5%. For `CC(=O)Nc1ccc(Oc2c([N+](=O)[O-])cc([N+](=O)[O-])cc2[N+](=O)[O-])cc1`, the inhibition was inactive: 7.43%. `CC(=O)Nc1ccc([As](=O)(O)O)c(O)c1`: the inhibition is inactive: 7.03%. For `COc1ccc2c(c1O)-c1c(O)c(OC)cc3c1[C@H](C2)[N+](C)(C)CC3.O=[N+]([O-])c1cc([N+](=O)[O-])c([O-])c([N+](=O)[O-])c1[O-]` the value was inactive: 13.6%; for `C[C@H]1OP(=O)(Oc2ccccc2)C[C@@H]2O[C@@H]21` (stereo partly specified), inactive: -2.38%.

Consider `C[C@@H]1C=CCP(=O)(Oc2ccccc2)O1` (stereo partly specified), for which the inhibition was inactive: 26.1%. `O=C(OCCN1CCN(CCOCc2ccccc2)CC1)C(O)(c1ccccc1)c1ccccc1`: the inhibition is inactive: 14.1%. For `Cc1ccccc1CN(C)C(=O)COC(=O)C(O)(c1ccccc1)c1ccccc1` the value was inactive: 9.19%; for `COC(=O)C1(C)COP(=O)(NCc2ccccc2)OC1` (stereo unspecified), inactive: -1.9%; for `O=C(OC1CN2CCC1CC2)c1ccc([N+](=O)[O-])cc1` (stereo unspecified), inactive: 6.35%. Under `CC(=O)c1ccc(N2CC2c2ccncc2)cc1` (stereo unspecified) stands inactive: 0.999%; under `N#C/C(=C\c1ccc(N(CCBr)CCBr)cc1)C(N)=O`, inactive: 16%; under `COc1ccc(OP(C)(=O)Nc2ccc(SC(F)(F)F)cc2)cc1` (stereo unspecified), inactive: 18.6%. In the case of `CCOC(=O)c1ccc(NP(C)(=O)Oc2ccc(F)cc2)cc1` (stereo unspecified), the inhibition was inactive: 29%.

As to `O=P1(N(CCCl)CCCl)OCCC2CCCCN21` (stereo unspecified), the inhibition is inactive: -4.07%. Turning to `Cc1ccc(NP(=O)(Oc2cccc(C)c2)Oc2cccc(C)c2)nc1`, the inhibition is inactive: -42.1%. Under `CCN(CC)CCCNc1ccccc1[N+](=O)[O-].O=[N+]([O-])c1cc([N+](=O)[O-])c(O)c([N+](=O)[O-])c1` stands inactive: -3.14%; under `c1ccc(-c2nn[nH]n2)c(-c2nn[nH]n2)c1`, inactive: -1.99%; under `O=C(NC1CCS(=O)(=O)C1)NP(=S)(Oc1ccccc1)Oc1ccccc1` (stereo unspecified), inactive: 13.1%.

Turning to `CCNC(=S)/N=C(\N)N[N+](=O)[O-]`, the inhibition is inactive: 12.8%.

As to `O=[N+]([O-])c1cc([N+](=O)[O-])c(OC2CCCCC2O)c([N+](=O)[O-])c1` (stereo unspecified), the inhibition is inactive: -55.3%.

On to `CCCCCOc1ccc(NP(C)(=O)Oc2ccc(Cl)cc2Cl)cc1` (stereo unspecified), for which the inhibition is inactive: 14.8%. Under `O=c1c2cc([N+](=O)[O-])ccc2[nH]c2c([N+](=O)[O-])cc([N+](=O)[O-])cc12` stands inactive: 20.3%. Under `CN(C)C(=O)Oc1noc2ccccc12` stands inactive: 8.77%; under `CC(NC(=O)COC(=O)C(O)(c1ccccc1)c1ccccc1)c1ccccc1` (stereo unspecified), inactive: 7.19%; under `Cc1ccccc1OP(=O)(Nc1ccccn1)Oc1ccccc1C`, inactive: 20%. For the compound `CP(=O)(Nc1ccccc1)Oc1ccc(F)cc1` (stereo unspecified), the inhibition is inactive: -28%. With `CCN(CC)CCCOC(=O)C(O)(c1ccccc1)C1CCCCC1` (stereo unspecified), the inhibition was inactive: 20.7%.
